Measured values from several laboratories, pooled; numbers as filed in NIAID ChemDB.

All rows: tests in culture; species: Mycobacterium tuberculosis

MIC bound comes from a single tested concentration.

structure	setting	tested at	cells	strain or isolate	method	changes	endpoint	value
COc1cc(Br)cc2cc(-c3cn4ccccc4n3)c(=O)oc12	-	-	-	H37Rv	BACTEC	-	MIC	>6.25 µg/mL
COc1cc2c(cc1Cl)n([O-])c(C#N)c(N1CCN(c3ccc([N+](=O)[O-])cc3)CC1)[n+]2=O	-	-	-	H37Rv	-	-	EC50	<6.25 µg/mL
COc1ccc(CS/C(N)=N/N=C/c2cc(Br)ccc2O)cc1	21 d	-	-	H37Rv	broth dilution	-	MIC	62.5 µM
CCCCCCCCCCCCCCC[C@H](O)CCC[C@H]1CC=CC(=O)O1	-	-	-	H37Rv	-	-	MIC	31.95 µg/mL
C[C@H]1COc2c(N3C[C@@H](N)C(C)(C)C3)c(F)cc3c(=O)c(C(=O)O)cn1c23	-	-	-	Rifampicin-resistant (5 strains pooled)	-	-	Mean MIC	3.1 µg/mL
CC(C)n1c(-c2ccccc2)cs/c1=N\NC(=O)COc1cnccn1	-	-	-	H37Rv	-	-	MIC	10 µg/mL
COc1cc2oc3cc(O)c(CCC(C)C)c(O)c3c(=O)c2c(CCC(C)C)c1O	-	-	-	H37Ra	resazurin	-	MIC	3.12 µg/mL
CN[C@@H]1[C@H](O[C@H]2[C@H](O[C@H]3[C@H](O)[C@@H](O)[C@H](N=C(N)N)[C@@H](O)[C@@H]3N=C(N)N)O[C@@H](C)[C@]2(O)C=O)O[C@@H](CO)[C@H](O)[C@H]1O	-	-	-	H37Rv	resazurin / fluorescence	-	MIC90	0.12 µg/mL
CN1N=C(c2ccncc2)OC1c1cccc(C(F)(F)F)c1	-	-	-	H37Rv	-	-	MIC	5 µg/mL
CCOc1ccc2ccccc2c1C(=O)N[C@@H]1C(=O)N2[C@@H]1SC(C)(C)[C@@H]2C(=O)O	-	-	-	H37Ra	-	-	MIC	>16 µg/mL
COc1ccc(C2OC(c3ccncc3)=NN2C)c(OC)c1	-	-	-	16PI	-	-	MIC	>20 µg/mL
CCOc1ccc(N2C(=O)CS/C2=N\NC(=O)COc2cnccn2)cc1	-	-	-	H37Rv	-	-	MIC	175 µg/mL
C=CCOc1cc2oc3cc(O)c(CCC(C)C)c(O)c3c(=O)c2c(CCC(C)C)c1OC	-	-	-	M27	resazurin	MDR	MIC	3.12 µg/mL
O=c1nc(N2CCN(CC3CCCCC3)CC2)sc2c([N+](=O)[O-])cc(C(F)(F)F)cc12	-	-	-	Clinical Isolate 16995	resazurin	INH RFP resistant	MIC90	<0.016 µg/mL
CN(C)c1ccc(N=Nc2ccccn2)cc1	-	-	-	H37Rv	resazurin	-	MIC bound	>6.25 µg/mL
O=[N+]([O-])[O][Ga]([O][N+](=O)[O-])[O][N+](=O)[O-]	inside macrophages	500 µM	-	MDR isolates	-	-	inhibition	85%
O=C(O)[C@H]1/C(=C/CO)O[C@@H]2CC(=O)N21	-	-	-	Isolate 1	-	-	MIC	>16 µg/mL
CCCCCCCCCCCCCCC[C@H](O)C[C@H](O)CCC[C@H]1CC=CC(=O)O1	-	128 µg/mL	VERO	H37Rv	fluorescence	-	inhibition	95.8%
CC(=O)Oc1cc2oc3cc(OC(C)=O)c(C(C)=O)c(CCC(C)C)c3c(=O)c2c(O)c1CCC(C)C	-	-	-	H37Ra	resazurin	-	MIC	3.12 µg/mL
Cc1ccc(NC(=O)NCCCCCCNC(=O)Nc2ccc(C)c(Cl)c2)cc1Cl	-	12.5 µg/mL	-	H37Rv	BACTEC	-	inhibition	16%
NNC(=O)c1ccncc1	-	-	-	M6	resazurin	MDR	MIC	2 µg/mL
CC(C)N.CC(C)NC(=S)S	-	-	-	H37Rv	BACTEC	-	MIC bound	>12.5 µg/mL
CCCCCCCCCCCCCC[C@H](O)C[C@H](O)C[C@H](O)C[C@H]1CC=CC(=O)O1	-	128 µg/mL	VERO	H37Rv	fluorescence	-	inhibition	82.9%
Cc1cc2c(cc1C)[n+]([O-])c(C#N)c(N)[n+]2[O-]	-	-	-	H37Rv	-	-	EC50	<6.25 µg/mL
CN1N=C(c2ccncc2)OC1c1ccc(Cl)cc1	-	-	-	16PI	-	-	MIC	>20 µg/mL
CCC1=CCN2CCC34c5cc(C6(C(=O)OC)CC7CC(CC)CN(CCc8c6[nH]c6ccccc86)C7)c(OC)cc5N(C)C3C(O)(C(=O)OC)C(OC(C)=O)C1C24	-	-	-	H37Rv	BACTEC	-	MIC bound	>12.5 µg/mL
C[C@H]1COc2c(N3C[C@@H](N)C4(CCC4)C3)c(F)cc3c(=O)c(C(=O)O)cn1c23	-	-	-	Rifampicin-sensitive (7 strains pooled)	-	-	Mean MIC	0.6 µg/mL
COC1=C(Br)[C@@H](O)[C@]2(C=C1Br)CC(C(=O)NCCCCNC(=O)C1=NO[C@]3(C=C(Br)C(OC)=C(Br)[C@@H]3O)C1)=NO2	-	-	-	H37Rv (streptomycin-resistant)	-	-	MIC	12.5 µg/mL
CN1N=C(c2ccncc2)OC1c1ccccc1F	-	-	-	H37Rv	-	-	MIC	10 µg/mL
N/C(=N\N=C\c1ccccc1O)SCc1cccc(Cl)c1	21 d	-	-	H37Rv	broth dilution	-	MIC	32 µM
O=[N+]([O-])c1ccc(CN2CC3CN(c4cccc(C(F)(F)F)c4)CC3C2)o1	-	-	-	Clinical Isolate 16833	resazurin	INH RFP resistant	MIC90	0.016 µg/mL
C[C@H]1COc2c(N3CCN(C)CC3)c(F)cc3c(=O)c(C(=O)O)cn1c23	-	-	-	Isolate 6	-	-	MIC	8 µg/mL
C[C@@H](O)[C@H]1C(=O)N2C(C(=O)O)=C(SCCN=CN)C[C@H]12	-	-	-	H37Ra	-	-	MIC	4 µg/mL
O=C(COc1cnccn1)N/N=c1\scc(-c2ccc(Br)cc2)n1-c1ccc(Cl)cc1	-	-	-	H37Rv	-	-	MIC	16 µg/mL
O=c1oc2ccccc2cc1-c1cn2cc(Br)ccc2n1	-	-	-	H37Rv	BACTEC	-	MIC	>6.25 µg/mL
Cc1cc(=O)[nH]c2c1C(=O)c1c(CCCCCCCC(C)C)cc(=O)[nH]c1C2=O	-	-	-	H37Rv	resazurin / fluorescence	-	MIC90	0.07 µg/mL
O=C1NC(=S)NC(=O)C1=Cc1ccc([N+](=O)[O-])o1	-	-	-	H37Rv	BACTEC	-	MIC	≥12.5 µg/mL
C[C@H]1COc2c(N3C[C@@H](N)C4(CC4)C3)c(F)cc3c(=O)c(C(=O)O)cn1c23	-	-	-	Rifampicin-resistant (5 strains pooled)	-	-	Mean MIC	2.4 µg/mL
N/C(=N\N=C\c1cc(Cl)cc(Cl)c1O)SCc1cccc(Cl)c1	14 d	-	-	H37Rv	broth dilution	-	MIC	16 µM
CC(C)(C)c1cccc(N2CCC3(CCN(Cc4ccc([N+](=O)[O-])o4)CC3)CC2)c1	-	-	-	Clinical Isolate 16833	resazurin	INH RFP resistant	MIC90	>10 µg/mL
CCOC(=O)C(Sc1ccccc1)c1c(OC)cc(=O)oc1[N+](=O)c1ccc(N(C)C)cc1	-	6.25 µg/mL	-	H37Rv	resazurin	-	inhibition	10%
NC(=O)c1cnccn1	-	-	-	ATCC 27294	resazurin	-	MIC	203 µM
CCCC(=O)Oc1cc2oc3cc(OC(=O)CCC)c(C(C)=O)c(CCC(C)C)c3c(=O)c2c(O)c1CCC(C)C	-	-	-	H37Ra	resazurin	-	MIC	25 µg/mL
Nc1nc(N)c([N+](=O)[O-])c(Nc2ccc(Br)cc2)n1	-	12.5 µg/mL	-	H37Rv	BACTEC	-	inhibition	-9%
C[C@H]1COc2c(N3C[C@@H]4CCCN[C@@H]4C3)c(F)cc3c(=O)c(C(=O)O)cn1c23	-	-	-	Rifampicin-sensitive (7 strains pooled)	-	-	Mean MIC	0.2 µg/mL
CCCCCCCCCCCCCCC[C@@H]1CC=CC(=O)O1	-	128 µg/mL	-	H37Rv	fluorescence	-	inhibition	66.3%
CCN(CC)c1cc2c(cc1C)nc1cc(C)c(=[N+]=Nc3ccc(N(C)C)cc3)cc-1n2-c1ccccc1	-	12.5 µg/mL	-	H37Rv	BACTEC	-	inhibition	97%
CCCCCCCCCCCCCCC[C@H](O)C[C@H](O)C[C@H](O)C[C@H]1CC=CC(=O)O1	-	128 µg/mL	VERO	H37Rv	fluorescence	-	inhibition	81.7%
CC(C)Cn1c(-c2ccccc2)cs/c1=N\NC(=O)COc1cnccn1	-	-	-	H37Rv	-	-	MIC	8.7 µg/mL
CC1(C)[C@H](C(=O)O)N2C(=O)C[C@H]2S1(=O)=O	-	-	-	H37Ra	-	-	MIC	>16 µg/mL
CC1=CC(C)(C)Nc2ccc(CSc3ccccc3)cc21	-	12.5 µg/mL	-	H37Rv	BACTEC	-	inhibition	69%
C[C@@H]1CN(c2c(F)c(N)c3c(=O)c(C(=O)O)cn(C4CC4)c3c2F)C[C@H](C)N1	-	-	-	Isolate 4	-	-	MIC	1 µg/mL
CCCc1c2c([nH]c(=O)c1C)C(=O)c1[nH]c(=O)c(C)c(CCC)c1C2=O	-	-	-	H37Rv	resazurin / fluorescence	Isoniazid-resistant	MIC90	0.13 µg/mL
CCCCCCCCCCCCCCC[C@H](O)CCCC[C@H](O)C[C@H]1CC=CC(=O)O1	-	128 µg/mL	VERO	H37Rv	fluorescence	-	inhibition	97.4%
CCCCn1c(-c2ccc(O)cc2)cs/c1=N\NC(=O)COc1cnccn1	-	-	-	H37Rv	-	-	MIC	16 µg/mL
N#Cc1nc2cc(Cl)ccc2nc1Cl	-	6.25 µg/mL	-	H37Rv	-	-	inhibition	58%
O=[N+]([O-])c1ccc(CN2CCC3(CC2)CCN(c2ccc(C(F)(F)F)cc2)CC3)o1	-	-	-	H37Rv	resazurin	-	MIC90	<0.016 µg/mL
COc1cc(Br)cc2cc(-c3cn4ccc(C)cc4n3)c(=O)oc12	-	-	-	H37Rv	BACTEC	-	MIC	>6.25 µg/mL
CCCOc1cc2oc3cc(O)c(CCC(C)C)c(O)c3c(=O)c2c(CCC(C)C)c1OC	-	-	-	M-4	resazurin	MDR	MIC	3.12 µg/mL
C[C@H]1COc2c(N3CC[C@H](N)C3)c(F)cc3c(=O)c(C(=O)O)cn1c23	-	-	-	Rifampicin-resistant (5 strains pooled)	-	-	Mean MIC	9.4 µg/mL
CCN(CC)CCCNc1c(O)cc(C)c2sc3ccccc3c(=O)c12	-	-	-	H37Rv	BACTEC	-	MIC bound	>12.5 µg/mL
COc1cccc2cc(-c3cn4cc(Br)ccc4n3)c(=O)oc12	-	6.25 µg/mL	-	H37Rv	BACTEC	-	inhibition	0%
CCOP(=O)(OCC)/C(=C\n1c(=S)[nH]c2ccc([N+](=O)[O-])cc21)C(=O)OC	-	-	-	H37Rv	resazurin	-	MIC bound	>6.25 µg/mL
COc1c(O)cc2oc3cc(O)c(CCC(C)C)c(O)c3c(=O)c2c1CCC(C)C	-	-	-	M16	resazurin	MDR	MIC	3.12 µg/mL
NNC(=O)c1ccncc1	-	-	-	Isolate 3	-	-	MIC	8 µg/mL
N/C(=N\N=C\c1cc(Cl)ccc1O)SCc1ccc(Br)cc1	21 d	-	-	H37Rv	broth dilution	-	MIC	16 µM
Cc1nc(C#N)c(=N)n(CCCO)c1-c1ccccc1	-	-	-	H37Rv	BACTEC	-	MIC	≥12.5 µg/mL
N/C(=N\N=C\c1cc(Br)ccc1O)SCc1ccc(F)cc1	14 d	-	-	H37Rv	broth dilution	-	MIC	16 µM
COc1cc2oc3cc(O)c(CCC(C)C)c(O)c3c(=O)c2c(CCC(C)C)c1OC	-	-	-	H37Rv	resazurin	-	MIC	0.78 µg/mL
N/C(=N\N=C\c1cc(Br)ccc1O)SCc1cccc(Cl)c1	14 d	-	-	H37Rv	broth dilution	-	MIC	32 µM
Nc1c(-c2c(Cl)cccc2Cl)[n+]([O-])c2ccccc2[n+]1[O-]	-	-	-	H37Rv	BACTEC	-	MIC	3.13 µg/mL
O=[N+]([O-])c1ccc(CN2CCC3(CC2)CCN(c2ccc(OC(F)(F)F)cc2)CC3)o1	-	-	-	H37Rv	resazurin	-	MIC90	<0.016 µg/mL
Cc1ccc([N+](=O)[O-])cc1P(=O)(O)c1cc([N+](=O)[O-])ccc1C	-	-	-	H37Rv	BACTEC	-	MIC bound	>12.5 µg/mL
C[C@H]1COc2c(N3CC[C@@H](CNC4CC4)C3)c(F)cc3c(=O)c(C(=O)O)cn1c23	-	-	-	Rifampicin-sensitive (7 strains pooled)	-	-	Mean MIC	0.9 µg/mL
O=C1C=C(Nc2ccc(Br)cc2)c2ccccc2C1=O	-	-	-	H37Rv	resazurin	-	MIC	≤0.1 µg/mL
N#Cc1ccc(N2CC3CC2CN3Cc2ccc([N+](=O)[O-])o2)cc1	-	-	-	Clinical Isolate 16995	resazurin	INH RFP resistant	MIC90	5.94 µg/mL
c1ccc2c(c1)SCC1COCOC21	-	12.5 µg/mL	-	H37Rv	BACTEC	-	inhibition	0%
CC(=O)NC[C@H]1CN(c2ccc(N3CCN(Cc4ccc([N+](=O)[O-])s4)CC3)c(F)c2)C(=O)O1	-	-	-	59 isolates	-	-	MIC90	0.25 µg/mL
Cn1cc(NC(=O)c2cc(NC(=O)CCCCCCCC(=O)Nc3cc(C(=O)Nc4cc(C(=O)NCCC(N)=[NH2+])n(C)c4)n(C)c3)cn2C)cc1C(=O)NCCC(N)=[NH2+]	-	-	VERO	H37Rv	BACTEC	-	MIC	1.6 µg/mL
CC(=O)c1c(OCCCCBr)cc2oc3cc(OCCCCBr)c(CCC(C)C)c(O)c3c(=O)c2c1CCC(C)C	-	-	-	H37Ra	resazurin	-	MIC	200 µg/mL
NNC(=O)c1cccc2c1Oc1ccccc1S2	-	12.5 µg/mL	-	H37Rv	BACTEC	-	inhibition	10%
N#Cc1nc2ccccc2nc1Cl	-	-	-	H37Rv	-	-	MIC	12.5 µg/mL
O=[n+]1c2ccccc2n([O-])c2cc(Br)ccc21	-	12.5 µg/mL	-	H37Rv	BACTEC	-	inhibition	99%
N#Cc1c(N2CCN(c3ccc([N+](=O)[O-])cc3)CC2)[n+](=O)c2ccc(Cl)cc2n1[O-]	-	-	-	H37Rv	-	-	EC50	<6.25 µg/mL
O=C(N=Nc1c(O)[nH]c2ccccc12)c1ccccc1O	-	12.5 µg/mL	-	H37Rv	BACTEC	-	inhibition	-4%
N/C(=N\N=C\c1cc(Cl)ccc1O)SCc1ccc(Cl)cc1	14 d	-	-	H37Rv	broth dilution	-	MIC	16 µM

Percent inhibition refers to the dose given; in toxicity tests it is the harm to the cells. ECn: concentration that inhibits the pathogen or its effect by n%. Lines come from different laboratories, so protocols vary. Blank or dashed fields: not listed here. A number after MIC or MFC names an inhibition level or a share of isolates.